Values from PubChem BioAssay AID504761 (Drosophila RNAi Screening Center, 2011).
The screen tested about 22,000 reagents; shown is an unselected part of those with a known target gene and a result. In the full data, 116 (0.52%) are marked active. 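Calls depend on retest data that are not deposited; infection was ranked per plate without normalising between plates; the unit of the infection score is not given.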 The raw values are shown without normalisation. A number with no mark means an inactive call. Reagents against one gene are numbered here. A plus sign joins genes that one reagent is predicted to hit. Not stated in the record: the amount of reagent, the time to read-out.

Aim: 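Insect host genes that dengue virus relies on to spread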 (primary screen)
System: D.Mel-2 cells from Drosophila
Reagent: long dsRNA against Drosophila genes
Challenge: infection with dengue virus type 2; dose and infection time not stated
Detection: 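Cells stained for dengue envelope protein and imaged; percent of infected cells per well on duplicate plates, ranked by infection, with stained nuclei counted for cell number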
Reading the numbers: infection score: higher = more virus-infected cells; cell count: higher = more cells in the well
Active means: 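Low infection ranks in the two replicates (chance level up to 0.065) followed by a retest with a 1.5-fold or larger significant decrease, p below 0.05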
Calls: active = confirmed: knock-down lowers infection; inactive = not picked or not confirmed

| Target gene | dsRNA no. | infection score, replicate 1 | infection score, replicate 2 | cell count, replicate 1 | cell count, replicate 2 |
| --- | --- | --- | --- | --- | --- |
| CG18233 (GeneID 40025) | 1 | 1.97 | 3.12 | 6495 | 6607 |
| CG5721 (GeneID 37084) | 1 | 5.07 | 5.01 | 6336 | 6413 |
| Taf10b (GeneID 33468) | 1 | 4.19 | 2.84 | 6494 | 6412 |
| CG6225 (GeneID 41559) | 1 | 14.5 | 4.08 | 3098 | 5000 |
| bdl (GeneID 33635) | 1 | 7.54 | 7.95 | 6303 | 6340 |
| ca (GeneID 43518) | 1 | 9.07 | 7.82 | 6284 | 6967 |
| ca (GeneID 43518) | 2 | 17.3 | 14.6 | 4519 | 5171 |
| ca (GeneID 43518) | 3 | 2.52 | 13.2 | 5746 | 3667 |
| Or71a (GeneID 39641) | 1 | 2.27 | 3.14 | 6558 | 6024 |
| GCS2beta (GeneID 35056) | 1 | 7.36 | 2.48 | 6710 | 6810 |
| GCS2beta (GeneID 35056) | 2 | 10.8 | 9.22 | 6596 | 6494 |
| HisCl1 (GeneID 41426) | 1 | 19.7 | 27.3 | 4642 | 5918 |
| CG9308 (GeneID 37507) | 1 | 13.4 | 15.2 | 6406 | 5484 |
| CG9308 (GeneID 37507) | 2 | 9.57 | – | 4700 | 279 |
| CG15111 (GeneID 37200) | 1 | 1.66 | 1.66 | 6737 | 6791 |
| CG14007 (GeneID 33799) | 1 | 2.4 | 2.2 | 6299 | 6508 |
| SdhCL (GeneID 41324) | 1 | 8.87 | 21.9 | 6808 | 2048 |
| Uhg2 + snoRNA:Me18S-G1620 + snoRNA:U14:30Ea | 1 | 1.28 | 2.26 | 6398 | 5674 |
| Lint-O (GeneID 31254) | 1 | 9.51 | 2.58 | 5645 | 1397 |
| Lint-O (GeneID 31254) | 2 | 2.22 | 6.06 | 5669 | 5912 |
| Ent1 (GeneID 33207) | 1 | 3.89 | 2.62 | 6036 | 6525 |
| HP1c (GeneID 42696) | 1 | 6.26 | 4 | 6601 | 150 |
| HP1c (GeneID 42696) | 2 | 7.15 (active) | 4.87 | 3860 | 4931 |
| CG6961 + CG18259 | 1 | 2.65 | 1.23 | 5093 | 5757 |
| CG6961 + CG18259 | 2 | 1.09 | 2.16 | 6873 | 6380 |
| CG6961 + CG18259 | 3 | 10 | 6.11 | 6692 | 6322 |
| CG7912 (GeneID 43561) | 1 | 8.21 | 1.47 | 6166 | 6390 |
| CG31730 (GeneID 318920) | 1 | 1.52 | 0.84 | 5780 | 5740 |
| CG18135 (GeneID 40073) | 1 | 6.55 | 6.04 | 6491 | 7071 |
| mRpS14 (GeneID 117414) | 1 | 7.64 | 12.3 | 5239 | 5195 |
| CG10887 (GeneID 42399) | 1 | 2.16 | 9.78 | 5979 | 5921 |
| CG10887 (GeneID 42399) | 2 | 7.15 | 7.64 | 6658 | 6732 |
| stai (GeneID 33863) | 1 | 2.2 | 0.88 | 6355 | 6503 |
| stai (GeneID 33863) | 2 | 9.6 | 11.6 | 4282 | 6094 |
| Cpr50Cb (GeneID 36525) | 1 | 4.15 | 22.8 | 6354 | 5864 |
| Cpr50Cb (GeneID 36525) | 2 | 14.9 | 3.31 | 6804 | 936 |
| Fitm (GeneID 38596) | 1 | 5.57 | 6.8 | 6443 | 6542 |
| Fitm (GeneID 38596) | 2 | – | 0.63 | – | 634 |
| CG15909 (GeneID 35572) | 1 | 5.43 | 21.3 | 6992 | 6208 |
| CG7120 (GeneID 38954) | 1 | 3.34 | 2.58 | 5752 | 6506 |
| EloC (GeneID 37237) | 1 | 1.21 | 1.93 | 6466 | 6316 |
| EloC (GeneID 37237) | 2 | 4.72 | 3.34 | 635 | 628 |
| CG9098 (GeneID 33840) | 1 | 8.95 | 3.93 | 6669 | 6442 |
| CG9098 (GeneID 33840) | 2 | 0.87 | 8.21 | 5549 | 6263 |
| CG9098 (GeneID 33840) | 3 | 27.4 | 11.9 | 5429 | 5152 |
| BBS5 (GeneID 40600) | 1 | 5.23 | 21.4 | 6219 | 6388 |
| BBS5 (GeneID 40600) | 2 | 6.54 | 14.7 | 6610 | 6552 |
| Dsor1 (GeneID 31872) | 1 | 1.04 | 6.83 | 5266 | 5254 |
| Dsor1 (GeneID 31872) | 2 | 2.32 | 3.21 | 6681 | 7193 |
| CG10958 (GeneID 31736) | 1 | – | 11 | 432 | 1661 |
| CG10958 (GeneID 31736) | 2 | – | – | 304 | 333 |
| CG9649 (GeneID 41727) | 1 | 9.28 | 14.7 | 6824 | 6457 |
| CG9649 (GeneID 41727) | 2 | 6.62 | 6.95 | 6423 | 6935 |
| CG16772 (GeneID 35281) | 1 | 3.88 | 2.74 | 6270 | 6275 |
| CG16772 (GeneID 35281) | 2 | 5.73 | 1.26 | 6738 | 6766 |
| CG3662 (GeneID 33260) | 1 | 3.94 | 4.39 | 6527 | 6452 |
| CG12923 (GeneID 36026) | 1 | 12.6 | 4.46 | 6700 | 6749 |
| Boot (GeneID 35919) | 1 | 25.7 | 10.6 | 3886 | 6211 |

Just “infection score, replicate 1”, for 8 of the entries above:
Lint-O (GeneID 31254) #2 = 2.22
Ent1 (GeneID 33207) = 3.89
HP1c (GeneID 42696) #1 = 6.26
HP1c (GeneID 42696) #2 = 7.15 (active)
CG6961 + CG18259 #1 = 2.65
CG6961 + CG18259 #2 = 1.09
CG6961 + CG18259 #3 = 10
CG7912 (GeneID 43561) = 8.21
